Test [1] concerns CS3 receptor. In words: Flow cytometric binding of FITC labelled C-CS3-HSA to RH9 cells. The note with it: 100 fold excess. On the set-up: species or system human. Here is the method:
Cysteine-CS3 (C-CS3, which has the sequence CLQARILAVERYLKDQQL) was coupled to human serum albumin as described (Ciancialo et al., 1988, Immunology Letters 19:7). A molar ratio of 10 CS3/HSA was achieved as determined by addition of trace amounts of ^125 I-CS3 to the coupling reaction. C-CS3-HSA was labelled with FITC (Harlow, 1988, in "Antibodies: A Laboratory Manual," Cold Spring Harbor Laboratories, pp. 354-355) and its binding to RH9 cells was determined with the use of Coulter Epics 753 Flow Cytometer. RH9 cells were washed with PBS 1% BSA and incubated with C-CS3-HSA or controls for 30 min. at 4° C. in a final volume of 100 μl. Cells were washed and resuspended at 10^6 cells/mi.

For test [2], the system named is HIV. Briefly: HIV infection of RH9 cells measured by p24 production. In kind it is cell-based, human immunodeficiency virus. As to conditions: CS3-HSA 10 μg/ml, HSA 20 μg/ml, antibody 6.7 μg/ml; 4 hours exposure, 18 days. Here is the method:
RH9 cells at a concentration of 2×10^5 cells/ml were exposed to either (i) medium; (ii) HIV virus alone; (iii) HIV virus in the presence of HSA at 20 μg/ml; (iv) HIV virus and CS3-HSA at 10 μg/ml; (v) HIV virus and 6.7 μg/ml antibody specific for CS3; or (vi) HIV virus and 6.7 μg/ml CS3 depleted anti-HIV IgG; for 4 hours, then washed three times in a 100× volume of HBSS. The cells were then incubated in RPMI containing 10% serum and 20 mM HEPES, at a concentration of about 5×10^5 cells ml, for 18 days (fresh medium was added in order to keep the cell concentration relatively constant).
HIV infection was measured in terms of expression of p24 protein, as quantitated by a standard assay (e.g. the F.D.A. approved Abbott Laboratory Assay).

Regarding human serum albumin [HSA], in test [1], the “decrease in the binding of C-CS3-HSA-FITC” value is recorded as “failed to effect a decrease in the binding”. For the same substance, the “inhibition of HIV infection of RH9 cells (p24 production)” value in test [2] was “inhibition was not observed”.

The record behind these values is US5567805A, “The cellular receptor for the CS3 peptide of human immunodeficiency virus” (priority 1994, dated 1996).
